Measured values reported in patent US20110038791A1, “METHODS FOR INHIBITING SIX1 AND EYA PROTEINS” (priority 2008, published 2011).

Chains of the proteins cited; added tags and fusions are not shown. Residues count along the entry.
UniProt O00167, 253-538 limits assumed: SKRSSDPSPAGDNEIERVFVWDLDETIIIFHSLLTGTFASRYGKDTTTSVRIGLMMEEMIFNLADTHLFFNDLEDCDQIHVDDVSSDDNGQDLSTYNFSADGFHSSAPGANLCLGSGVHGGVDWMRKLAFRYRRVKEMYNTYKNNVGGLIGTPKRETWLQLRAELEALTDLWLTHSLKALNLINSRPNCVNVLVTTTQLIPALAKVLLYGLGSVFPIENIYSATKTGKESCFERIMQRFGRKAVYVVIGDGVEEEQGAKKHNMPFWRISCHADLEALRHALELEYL

Molecular target: human Eya2 Eya Domain (ED) (Homo sapiens, UniProt O00167)
Experiment: Inhibition of the phosphatase activity of Eya2 Eya Domain (ED) by known phosphatase inhibitors
Assay type: biochemical
Details: at the concentrations that typically completely inhibit their cognate phosphatases

O=[As]c1ccccc1 (stereo not shown)
effect on ED phosphatase activity: no effect
